Target: human α9α10 nAChR (human) (UniProt Q9UGM1)
Assay: cell-based or functional assay

| Substance | fold reduction in potency against RgIA-5474 | fold drop in potency against RgIA-5474 |
| --- | --- | --- |
| RgIA-5687 | 28 fold | – |
| RgIA-5702 | – | 7 fold |

From patent US20240269228A1, “SELECTIVE PENICILLAMINE SUBSTITUTION ENABLES DEVELOPMENT OF A POTENT ANALGESIC PEPTIDE THAT ACTS THROUGH A NON-OPIOID BASED MECHANISM” (published 2024)
